Measured values from several laboratories, pooled; numbers as filed in NIAID ChemDB.

All rows: growth or infection tests; organism: Candida albicans; read-out: MIC

Rows are shuffled and stem from different studies.

{"compound": "CCCCCOc1ccc(-c2ccc(-c3ccc(C(=O)N[C@H]4CCCNC(=O)[C@@H]5C[C@H](NC(=O)c6ccccc6)CN5C(=O)[C@H]([C@@H](C)O)NC(=O)[C@H](CCc5ccc(O)cc5)NC(=O)[C@@H]5C[C@@H](O)CN5C(=O)[C@H]([C@@H](C)O)NC4=O)cc3)cc2)cc1", "strain": "ATCC 10231", "result": "6.25 µg/mL"}
{"compound": "Cc1c(S(=O)(=O)c2ccccc2)[n+](=O)c2cc(Cl)ccc2n1[O-]", "strain": "Clinical isolate 21", "result": "15.6 µg/mL"}
{"compound": "C[C@@H](n1cnc2ncccc2c1=O)[C@](O)(Cn1cncn1)c1ccc(F)cc1F", "strain": "76 strains", "result": "40 µg/mL"}
{"compound": "Cc1ccc(C(Cn2ccnc2)OCc2ccc(-c3ccccc3)cc2)cc1", "strain": "PR1", "result": "128 µg/mL"}
{"compound": "C[C@@H](n1cnc2ccc(Br)cc2c1=O)[C@](O)(Cn1cncn1)c1ccc(F)cc1F", "strain": "406 strains", "result": "≤0.03 µg/mL"}
{"compound": "CCCCCOc1ccc(-c2ccc(-c3ccc(C(=O)N[C@H]4CCCNC(=O)[C@@H]5C[C@H](N)CN5C(=O)[C@H](CCCN=C(N)N)NC(=O)C(CCc5ccc(O)cc5)NC(=O)[C@@H]5C[C@@H](O)CN5C(=O)[C@H]([C@@H](C)O)NC4=O)cc3)cc2)cc1", "strain": "ATCC 62376", "result": "0.39 µg/mL"}
{"compound": "CC(/C=C/C=C(\\C)C(O)C(C)C(=O)O[C@H]1C[C@@H](C)C=C2C=C[C@]3(C)O[C@@H](O)CC(=O)[C@]3(C)[C@H]21)=C\\C=C\\C(=O)O", "strain": "ATCC 10231", "result": "0.78 µg/mL"}
{"compound": "O=[n+]1c(Sc2ccccc2)c(CBr)n([O-])c2ccccc21", "strain": "Clinical isolate 7", "result": "31.25 µg/mL"}
{"compound": "CCCCCOc1ccc(-c2ccc(-c3ccc(C(=O)N[C@H]4CCCNC(=O)C5C[C@H](N)CN5C(=O)C(CCC[N+](C)(C)C)NC(=O)C(CCc5ccc(O)cc5)NC(=O)C5C[C@@H](O)CN5C(=O)C(C(C)O)NC4=O)cc3)cc2)cc1", "strain": "ATCC CCH442", "result": "0.2 µg/mL"}
{"compound": "CC(C)(C)c1ccc(COC(Cn2ccnc2)c2ccc(Cl)cc2)cc1", "strain": "CA6", "result": ">128 µg/mL"}
{"compound": "CCOc1cc2c(cc1F)n([O-])c(C)c(S(=O)(=O)c1ccccc1)[n+]2=O", "strain": "Clinical isolate 10", "result": "31.25 µg/mL"}
{"compound": "COc1ccc(-c2ccc(C(=O)N[C@H]3CCCNC(=O)C4C[C@H](N)CN4C(=O)C(C(C)O)NC(=O)C(CCc4ccc(O)cc4)NC(=O)C4C[C@@H](O)CN4C(=O)C(C(C)O)NC3=O)cc2)cc1", "strain": "ATCC CCH442", "result": "6.25 µg/mL"}
{"compound": "Clc1ccc(C(Cn2ccnc2)OCc2cccc3ccccc23)cc1", "strain": "5M", "result": "128 µg/mL"}
{"compound": "CCCCCOc1ccc(-c2ccc(-c3ccc(CN[C@H]4CCCNC(=O)C5C[C@H](N)CN5C(=O)C(C(C)O)NC(=O)C(CCc5ccc(O)cc5)NC(=O)C5C[C@@H](O)CN5C(=O)C(C(C)O)NC4=O)cc3)cc2)cc1", "strain": "ATCC 62376", "result": "0.39 µg/mL"}
{"compound": "Cc1ccc(C(Cn2ccnc2)OCc2ccc(C(C)(C)C)cc2)cc1", "strain": "PR1", "result": ">128 µg/mL"}
{"compound": "Cc1c(O)cccc1C(=O)N[C@@H](CSc1ccccc1)[C@H](O)CN1C[C@H]2CCCC[C@H]2C[C@H]1C(=O)NC(C)(C)C", "strain": "I70B", "result": "64 µg/mL"}
{"compound": "Clc1ccc(C(Cn2ccnc2)OC/C=C/c2ccccc2)cc1", "strain": "3M", "result": "128 µg/mL"}
{"compound": "CC(C)N=C(N)c1ccc2nc(-c3ccc4c(c3)Cc3cc(-c5nc6ccc(C(N)=NC(C)C)cc6[nH]5)ccc3-4)[nH]c2c1", "strain": "Isolate 3028 fluconazole-resistant", "result": "1.56 µg/mL"}
{"compound": "Cc1c(Sc2ccccc2)[n+](=O)c2cc(Cl)ccc2n1[O-]", "strain": "Clinical isolate 4", "result": "31.25 µg/mL"}
{"compound": "CCCCCCCCCCCCOc1ccc(-c2ccc(C(=O)N[C@H]3CCCNC(=O)C4C[C@H](N)CN4C(=O)C(C(C)O)NC(=O)C(CCc4ccc(O)cc4)NC(=O)C4C[C@@H](O)CN4C(=O)C(C(C)O)NC3=O)cc2)cc1", "strain": "ATCC 10231", "result": "0.39 µg/mL"}
{"compound": "C[C@H](n1cnc2cc(Cl)ccc2c1=O)[C@](O)(Cn1cncn1)c1ccc(F)cc1F", "strain": "76 strains", "result": "5 µg/mL"}
{"compound": "CCCCCOc1ccc(-c2ccc(-c3ccc(C(=O)N[C@H]4CCCNC(=O)C5C[C@H](NCC(N)CO)CN5C(=O)C(C(C)O)NC(=O)C(CCc5ccc(O)cc5)NC(=O)C5C[C@@H](O)CN5C(=O)C(C(C)O)NC4=O)cc3)cc2)cc1", "strain": "ATCC CCH442", "result": "0.39 µg/mL"}
{"compound": "C[C@@H](n1cnc2cc(OCCF)ccc2c1=O)[C@](O)(Cn1cncn1)c1ccc(F)cc1F", "strain": "60 strains", "result": "0.07 µg/mL"}
{"compound": "Cc1c(S(=O)(=O)c2ccccc2)[n+](=O)c2ccccc2n1[O-]", "strain": "Clinical isolate 14", "result": "15.6 µg/mL"}
{"compound": "CSc1ccc2c(=O)n([C@H](C)[C@](O)(Cn3cncn3)c3ccc(F)cc3F)cnc2c1", "strain": "76 strains", "result": "≤0.03 µg/mL"}
{"compound": "CCCCCCCCCCCCOc1ccc(N2CCN(c3ccc(C(=O)N[C@H]4CCCNC(=O)C5C[C@H](N)CN5C(=O)C(C(C)O)NC(=O)C(CCc5ccc(O)cc5)NC(=O)C5C[C@@H](O)CN5C(=O)C(C(C)O)NC4=O)cc3)CC2)cc1", "strain": "ATCC 62376", "result": "0.78 µg/mL"}

Repeating the final 2 entries:

| compound | strain | result |
|---|---|---|
| CSc1ccc2c(=O)n([C@H](C)[C@](O)(Cn3cncn3)c3ccc(F)cc3F)cnc2c1 | 76 strains | ≤0.03 µg/mL |
| CCCCCCCCCCCCOc1ccc(N2CCN(c3ccc(C(=O)N[C@H]4CCCNC(=O)C5C[C@H](N)CN5C(=O)C(C(C)O)NC(=O)C(CCc5ccc(O)cc5)NC(=O)C5C[C@@H](O)CN5C(=O)C(C(C)O)NC4=O)cc3)CC2)cc1 | ATCC 62376 | 0.78 µg/mL |